A mixed list of measured activities; the numbers were collected in NIAID ChemDB.

All rows: target-level tests; organism: HIV-1; protein: Protease; method: HPLC; measure: Ki

Rows are shuffled and stem from different studies.

SMILES | setting | strain | result
C=C(C)CN(C[C@@H](O)[C@H](Cc1ccccc1)NC(=O)OC(C)(C)C)S(=O)(=O)c1ccc(NC(C)=O)cc1 | - | - | 0.006 µM
CC(C)[C@H](NC(=O)[C@H](Cc1ccccc1)C[C@H](O)[C@H](Cc1ccccc1)NC(=O)OC(C)(C)C)C(=O)N/C(N)=N/C(=O)OCc1ccccc1 | - | - | 0.00028 µM
CC(=O)Nc1ccc(S(=O)(=O)N(C)C[C@@H](O)[C@H](Cc2ccccc2)NC(=O)OC(C)(C)C)cc1Cl | - | - | >5 µM
CC(C)C[C@H](NC(=O)CCCCCCCCCCCCCCC(=O)N[C@@H](Cc1ccc(N)cc1)C(=O)N[C@@H](Cc1ccccc1)C(=O)O)C(=O)N[C@@H](CC(C)C)C(=O)N[C@@H](Cc1ccccc1)C(N)=O | - | - | 0.0401 µM
CC(C)[C@H](NC(=O)[C@H](C/C=C/c1ccccc1)C[C@H](O)[C@H](Cc1ccccc1)NC(=O)OC(C)(C)C)c1ncn[nH]1 | - | - | 0.0067 µM
CC(C)(C)OC(=O)N[C@@H](Cc1ccccc1)[C@H](O)C(=O)N[C@@H](CCC(=O)O)C(=O)N[C@@H](Cc1ccccc1)C(=O)O | - | - | 3.3 µM
COC(=O)[C@@H](NC(=O)[C@@H](NC(=O)[C@H](C)C[C@H](O)[C@H](Cc1ccccc1)NC(=O)[C@H](C)NC(=O)[C@H](C)NC(=O)OCc1ccccc1)C(C)C)C(C)C | - | - | 0.0007 µM
CC(C)(C)OC(=O)N[C@H](Cc1ccccc1)/C(O)=C(\C#N)c1c(F)c(F)c(F)c(F)c1F | - | - | 1.49 µM
CNC(=O)C1NC[C@H](Cc2ccccc2)N(CC(O)CN(CC2CCCC2)S(=O)(=O)c2ccc(OC)cc2)C1=O | - | - | 0.6 µM
COc1ccc(S(=O)(=O)N(CC(C)C)C[C@@H](O)CCN(CCC2CCCC2)C(=O)O[C@H]2CCOC2)cc1 | pH 4.7 | IIIB | >3 µM
O=C(N[C@@H](Cc1ccccc1)[C@H](O)CN(CC1CCCC1)S(=O)(=O)c1ccc(F)cc1)O[C@@H]1CCOC1 | - | - | 0.0002 µM
COC(=O)[C@@H](NC(=O)[C@@H](NC(=O)[C@H](C)CC(=O)[C@H](Cc1ccccc1)NC(=O)OC(C)(C)C)C(C)C)C(C)C | - | - | >1 µM
CC(C)[C@H](NC(=O)OCc1ccccc1)C(=O)N[C@@H](Cc1ccccc1)C(O)[C@H](Cc1ccccc1)NC(=O)[C@@H](NC(=O)OCc1ccccc1)C(C)C | - | - | 0.23 µM
CC(C)C[C@@H](C=O)NC(=O)[C@H](CO)NC(=O)[C@H](Cc1ccc(O)cc1)NC(=O)[C@H](CCC(=O)O)NC(=O)[C@H](CC(C)C)NC(=O)[C@@H](N)CC(C)C | - | - | 0.01 µM
COC(=O)CC1NC[C@H](Cc2ccccc2)N(CC(O)CN(CC2CCCC2)S(=O)(=O)c2ccc(OC)cc2)C1=O | - | - | >20 µM
CC(C)C[C@H](NC(=O)[C@@H](NC(=O)CCCCCCCCCCCCCCC(=O)N[C@@H](CC(N)=O)C(=O)N[C@@H](CC1CCCCC1)C(=O)O)C(C)O)C(=O)N[C@@H](Cc1cc(I)c(Oc2cc(I)c(O)c(I)c2)c(I)c1)C(N)=O | - | - | 0.0351 µM
COC(=O)[C@@H](NC(=O)[C@@H](NC(=O)[C@@H](C[C@H](O)[C@H](Cc1ccccc1)NC(=O)[C@H](C)NC(=O)OCc1ccccc1)C(C)C)C(C)C)C(C)C | pH 6.0 | - | 0.0009 µM
C=CCC1NC[C@H](Cc2ccccc2)N(CC(O)CN(CC2CCCC2)S(=O)(=O)c2ccc(OC)cc2)C1=O | - | - | >20 µM
O=C(N[C@@H](Cc1ccccc1)[C@H](O)CN(CC1CCCO1)S(=O)(=O)c1ccc(F)cc1)O[C@H]1CCOC1 | - | - | 0.014 µM
CC[C@H](C)[C@@H](NC(=O)[C@@H](C[C@H](O)[C@H](CC(C)C)NC(=O)[C@H](Cc1cnc[nH]1)NC(=O)[C@H](Cc1ccccc1)NC(=O)[C@@H]1CCCN1C(=O)[C@@H](N)Cc1cnc[nH]1)C(C)C)C(=O)N[C@@H](Cc1cnc[nH]1)C(=O)O | pH 5.0 | - | 0.015 µM
CC(=O)Nc1ccc(S(=O)(=O)N(C)C[C@@H](O)[C@H](Cc2ccccc2)NC(=O)OC(C)(C)C)cc1Cl | - | - | >5 µM
CC(C)C[C@H](NC(=O)[C@@H](NC(=O)CCCCCCCCCCCCCCC(=O)N[C@@H](Cc1ccc(N)cc1)C(=O)N[C@@H](Cc1ccccc1)C(=O)O)C(C)C)C(=O)N[C@@H](Cc1ccccc1)C(N)=O | - | - | 0.051 µM
O=C(N[C@@H](Cc1ccccc1)[C@H](O)CN1CC=CCCC12C(=O)Nc1ccccc12)O[C@H]1CO[C@H]2OCC[C@H]21 | - | - | >1000 µM
CC(C)[C@H](NC(=O)[C@H](C)C[C@H](O)[C@H](Cc1ccccc1)NC(=O)[C@H](C)NC(=O)OCc1ccccc1)C(=O)N[C@H](CO)C(C)C | - | - | 0.002 µM
Cc1cc(C)cc(C[C@@H]2[C@H](O)[C@@H](O)[C@@H](Cc3ccccc3)N(Cc3ccc4[nH]nc(N)c4c3)C(=O)N2Cc2ccccc2)c1 | - | - | 0.0002 µM
COc1ccc(S(=O)(=O)N(CC2CCCC2)C[C@@H](O)[C@H](Cc2ccccc2)NC(=O)OCc2cccnc2)cc1 | - | - | <0.0001 µM
CC(C)c1ccccc1Sc1c(O)cc(-c2ccc(OCc3cccnc3)cc2)oc1=O | pH 4.7 | - | 0.029 µM
COC(=O)[C@@H](NC(=O)[C@@H](NC(=O)[C@@H]1CCC[C@H]1[C@@H](O)[C@H](Cc1ccccc1)NC(=O)[C@H](C)NC(=O)[C@H](C)NC(=O)[C@@H](N)CO)C(C)C)C(C)C | - | - | 28 µM
COc1ccc(S(=O)(=O)N(CC2CCCC2)C[C@@H](O)[C@H](Cc2ccccc2)NC(=O)OCc2cccnc2)cc1 | - | - | <0.0001 µM
CC(C)[C@H](NC(=O)[C@H](C/C=C/c1ccccc1)C[C@H](O)[C@H](Cc1ccccc1)NC(=O)OC(C)(C)C)c1ncc[nH]1 | - | - | 0.014 µM
CC(C)C[C@H](NC(=O)[C@@H](NC(=O)CCCCCCCCCCCCCCC(=O)N[C@@H](CC(N)=O)C(=O)N[C@@H](Cc1cccc2ccccc12)C(=O)O)C(C)O)C(=O)N[C@@H](Cc1cc(I)c(Oc2cc(I)c(O)c(I)c2)c(I)c1)C(N)=O | - | - | 0.0292 µM

Repeating the first 2 entries:

{"SMILES": "C=C(C)CN(C[C@@H](O)[C@H](Cc1ccccc1)NC(=O)OC(C)(C)C)S(=O)(=O)c1ccc(NC(C)=O)cc1", "result": "0.006 µM"}
{"SMILES": "CC(C)[C@H](NC(=O)[C@H](Cc1ccccc1)C[C@H](O)[C@H](Cc1ccccc1)NC(=O)OC(C)(C)C)C(=O)N/C(N)=N/C(=O)OCc1ccccc1", "result": "0.00028 µM"}

Blank or dashed fields: not listed here.